# Reference: BindingDB's records for 35549342
# Target: Replicase polyprotein 1ab (Severe acute respiratory syndrome coronavirus 2, UniProt P0DTD1)
# Assay: Inhibition of recombinant SARS-CoV-2 Main protease using ALNDFSNSGSDVLYQPPQTSITSAVLQ/SGFRKMAFPS-NH2 as substrate preincubated for 45 to 75 mins followed by substrate addition measured after 6 mins by SPE-MS inhibition assay
structure (smiles),measurement,value
CC1(C)S[C@H]2N(C(=O)C2(Br)Br)[C@H]1C(=O)OCc1ccccc1,IC50,> 50 µM
